Measured values from several laboratories, pooled; numbers as filed in NIAID ChemDB.

Common to all: tests in culture; organism: Cryptosporidium parvum; endpoint: inhibition

An empty or dashed field is not shown.

{"SMILES": "O=C(C[C@H]1NCCC[C@@H]1O)Cn1cnc2cc(Br)c(Cl)cc2c1=O", "strain or isolate": "Calf isolate", "cells": "L929", "dose": "0.8 µg/mL", "result": "89.47%"}
{"SMILES": "CC(C)(C)NC(=O)[C@@H]1C[C@@H]2CCCC[C@@H]2CN1C[C@@H](O)[C@H](Cc1ccccc1)NC(=O)[C@H](CC(N)=O)NC(=O)c1ccc2ccccc2n1", "cells": "HCT-8", "dose": "2.5 µg/mL", "result": "<5%"}
{"SMILES": "CO[C@H]1O[C@@H](n2ccc(=O)[nH]c2=O)C[C@@H]1N=[N+]=[N-]", "dose": "10 µg/mL", "result": "9%"}
{"SMILES": "Nc1ccc(S(=O)(=O)Nc2cnc3ccccc3n2)cc1", "strain or isolate": "Human isolate", "cells": "L929", "dose": "4 µg/mL", "result": "83.15%"}
{"SMILES": "Cc1c(N)nc([C@H](CC(N)=O)NC[C@H](N)C(N)=O)nc1C(=O)N[C@H](C(=O)N[C@H](C)[C@@H](O)[C@H](C)C(=O)N[C@H](C(=O)NCCc1nc(-c2nc(C(=O)NCCC[S+](C)C)cs2)cs1)[C@@H](C)O)C(O[C@@H]1O[C@@H](CO)[C@@H](O)[C@H](O)[C@@H]1O[C@H]1O[C@H](CO)[C@@H](O)[C@H](OC(N)=O)[C@@H]1O)c1cnc[nH]1", "cells": "HCT-8", "dose": "1 µM", "result": "0%"}
{"SMILES": "O=S(=O)(F)Cc1ccccc1", "read by": "cell count / microscopy", "dose": "1000 µM", "result": "31.1%"}
{"SMILES": "CCCCc1cc2c(=O)c(C(=O)OC)c[nH]c2cc1OCc1ccccc1", "strain or isolate": "Calf isolate", "cells": "L929", "dose": "0.032 µg/mL", "result": "-10%"}
{"SMILES": "CC(=O)N[C@@H](CC(C)C)C(=O)N[C@@H](CC(C)C)C(=O)N[C@H](C=O)CCCN=C(N)N", "dose": "100 µg/mL", "result": "48.1%"}
{"SMILES": "NC[C@@H]1O[C@H](O[C@H]2[C@@H](O)[C@H](O[C@@H]3[C@@H](O)[C@H](N)C[C@H](N)[C@H]3O[C@H]3O[C@H](CO)[C@@H](O)[C@H](O)[C@H]3N)O[C@@H]2CO)[C@H](N)[C@@H](O)[C@@H]1O", "dose": "25 µg/mL", "result": "28%"}
{"SMILES": "COc1cc([C@@H]2c3cc4c(cc3[C@@H](O[C@@H]3O[C@@H]5CO[C@@H](c6cccs6)O[C@H]5[C@H](O)[C@H]3O)[C@H]3COC(=O)[C@H]23)OCO4)cc(OC)c1O", "cells": "HCT-8", "dose": "1 µM", "result": "0%"}
{"SMILES": "NC(=O)c1ncn([C@@H]2O[C@H](CO)[C@@H](O)[C@H]2O)n1", "dose": "50 µg/mL", "result": "91%"}
{"SMILES": "Cc1cn([C@H]2C[C@H](N=[N+]=[N-])[C@@H](CO)O2)c(=O)[nH]c1=O", "strain or isolate": "Calf isolate", "cells": "L929", "dose": "0.8 µg/mL", "result": "-14.65%"}
{"SMILES": "Nc1ncnc2c1ncn2[C@@H]1O[C@H](CO)[C@@H](O)[C@@H]1O", "dose": "50 µg/mL", "result": "12%"}
{"SMILES": "CO[C@@]12[C@H](COC(N)=O)C3=C(C(=O)C(C)=C(N)C3=O)N1C[C@@H]1N[C@@H]12", "cells": "HCT-8", "dose": "1 µM", "result": "67%"}
{"SMILES": "O=C(O)P(=O)(O)O", "dose": "100 µg/mL", "result": "0%"}
{"SMILES": "CC(C)c1nc(CN(C)C(=O)N[C@H](C(=O)N[C@@H](Cc2ccccc2)C[C@H](O)[C@H](Cc2ccccc2)NC(=O)OCc2cncs2)C(C)C)cs1", "cells": "HCT-8", "dose": "10 µg/mL", "result": "45%"}
{"SMILES": "C[C@H]1c2cccc(O)c2C(O)=C2C(=O)[C@]3(O)C(O)=C(C(N)=O)C(=O)[C@@H](N(C)C)[C@@H]3[C@@H](O)[C@@H]21", "cells": "HCT-8", "dose": "1 µM", "result": "0%"}
{"SMILES": "NC(=O)c1nc[nH]c1C(N)=O", "strain or isolate": "Human isolate", "cells": "L929", "dose": "4 µg/mL", "result": "47.43%"}
{"SMILES": "O=c1[nH]c(=O)n([C@H]2C[C@H](O)[C@@H](CO)O2)cc1/C=C/Br", "dose": "25 µg/mL", "result": "13%"}

The last 2 rows once more:

SMILES	strain or isolate	cells	read by	dose	result
NC(=O)c1nc[nH]c1C(N)=O	Human isolate	L929		4 µg/mL	47.43%
O=c1[nH]c(=O)n([C@H]2C[C@H](O)[C@@H](CO)O2)cc1/C=C/Br				25 µg/mL	13%

Conditions beyond the fields shown may differ between rows. Percent inhibition refers to the dose given; in toxicity tests it is the harm to the cells.